The list shows a part of the results, in another mix than the full data. The source made the active and inactive calls.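 How the source made its calls: active means inhibition above the mean of all tested compounds plus 3 SD, set per screening campaign (cut at about 45% in these data); inactive means the rest.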

This passage reports inhibition results from PubChem BioAssay AID1899 (The Scripps Research Institute Molecular Screening Center, 2009).

The test system of the test is HCV core protein (residues 1-106) dimerization. The test is described as follows: blockers of core106 self-association – biochemical, TR-FRET, high-throughput, primary screen (AID 1899). Particulars: TR-FRET GST/Flag-core106 dimerization, 1536-well; at 5 µM; hits give high values. Summed up: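 Material: GST/Flag-tagged HCV core106 proteins. Incubation: 4 h, 22.5 °C incubation. Read-out basis: inhibition (%) from 671 over 617 nm ratio. Measured by: TR-FRET, excitation 340 nm, emission 617 and 671 nm.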
On the technique in general: In TR-FRET formats the signal depends on donor and acceptor labels being close together.
For `O=C(NC1CCS(=O)(=O)C1)NP(=S)(Oc1ccccc1)Oc1ccccc1` (configuration not stated), the inhibition was inactive: -1.23%. The same measure for `CCNC(=S)/N=C(\N)N[N+](=O)[O-]`: inactive: -1.15%; for `Cc1ccc(NP(=O)(Oc2cccc(C)c2)Oc2cccc(C)c2)nc1`: inactive: 1.97%; for `CCOC(=O)NC(Sc1ccccc1)C(Cl)(Cl)Cl` (configuration not stated): inactive: -1.81%.

Take `c1ccc(-c2nn[nH]n2)c(-c2nn[nH]n2)c1`: the inhibition is inactive: -4.39%. Turning to `CCN(N=Nc1nonc1N)c1nonc1N`, the inhibition was inactive: -1.89%. The value for `O=[N+]([O-])c1cc([N+](=O)[O-])c(CCN2CCOCC2)c([N+](=O)[O-])c1` was inactive: 34.1%; that for `CN(C(=O)Cc1ccc(Cl)c(Cl)c1)[C@H]1CCCC[C@@H]1N1CCCC1` was inactive: 2.64%. With `Cc1ccc(NP(=O)(Oc2ccccc2F)Oc2ccccc2F)nc1`, the inhibition is inactive: -1.03%. On to `Cc1cc(SC(NC(=O)c2ccc(F)cc2)C(Cl)(Cl)Cl)ncn1` (configuration not stated), for which the inhibition is inactive: -3.19%. The value for `CCOP(=O)(Nc1ccccc1)OCC` was inactive: 4.61%; that for `CC(=O)Nc1ccc([As](=O)(O)O)cc1` was inactive: -3.41%. The same measure for `O=C(O)c1ccccc1[As](=O)(O)O`: inactive: 11.6%; for `O=P(Nc1nc2ccc(Cl)cc2s1)(c1ccccc1)c1ccccc1`: inactive: 7.47%. The same measure for `Nc1cc(N)c2nonc2c1[N+](=O)[O-]`: inactive: -3.52%. For the compound `CC(C)CC(=O)NC(Sc1ccc(Cl)cc1)C(Cl)(Cl)Cl` (configuration not stated), the inhibition was inactive: 2.76%. The same measure for `O=C(NC(Sc1ccncn1)C(Cl)(Cl)Cl)c1ccccc1` (configuration not stated): inactive: 1.91%. In the case of `Cc1c2non([O-])c-2c(C)[n+](=O)[n+]1[O-]`, the inhibition was inactive: -3.26%. The value for `Oc1ccccc1CNc1ccccn1` was inactive: 4.16%; that for `Cc1ccc(OP(=O)(Nc2nccs2)Oc2ccc(C)cc2)cc1` was inactive: 4.13%. In the case of `COc1ccccc1OP(=O)(Nc1ccc(C)cn1)Oc1ccccc1OC`, the inhibition was inactive: 1.03%.

With `CN1CCCC(OC(=O)C(c2ccccc2)c2ccccc2)C1` (configuration not stated), the inhibition was inactive: -5.74%. The same measure for `Clc1ccc(Cl)c(NC2=NCC(CBr)S2)c1` (configuration not stated): inactive: -2.21%. The value for `NC(=O)c1cc([N+](=O)[O-])cc([N+](=O)[O-])c1N` was inactive: -0.89%. Take `Cc1ccc(N/C(=N/P(=O)(N2CCOCC2)N2CCOCC2)N2CCOCC2)cc1`: the inhibition is inactive: -2.28%. The value for `CN(C(=O)Cc1ccc(Cl)c(Cl)c1)[C@H]1CCCC[C@H]1N1CCCC1` was inactive: -9.38%. The same measure for `CN(C)C(=O)OCCc1n(C)cc[n+]1C`: inactive: 0.41%; for `CC(C)=N/N=C(\N)N[N+](=O)[O-]`: inactive: -3.11%. `CC1CCN(C(=O)Oc2c(Cl)cc(Cl)c3cccnc23)CC1`: the inhibition was inactive: 2.39%. The value for `C[N+]1=C2C=CC=CC=C2SC12C([N+](=O)[O-])=CC([N+](=O)[O-])=C[C-]2[N+](=O)[O-]` (configuration not stated) was active: 54.2%; that for `Nc1ccc([As](=O)(O)c2ccc(N)cc2)cc1` was inactive: -1.87%; that for `CCN(/C(=N/P(=O)(N1CCOCC1)N1CCOCC1)N1CCOCC1)c1ccc(OC)cc1` was inactive: -5.66%. Turning to `CC(=O)N1C2C3N(C(C)=O)C1C1N(C(C)=O)C(C(N1C(C)=O)N3C(C)=O)N2C(C)=O`, the inhibition was inactive: 1.51%. The value for `O=[N+]([O-])c1cccc2n[nH]nc12` was inactive: -6.87%; that for `O=[N+]([O-])c1cc([N+](=O)[O-])c(CCNc2ccccc2)c([N+](=O)[O-])c1` was active: 46.2%. The value for `CCc1nc2c(n1)c1c(non1O)c1c2no[n+]1[O-]` was inactive: -5.52%; that for `Cc1ccc(NP(=O)(Oc2ccccc2)Oc2ccccc2)nc1` was inactive: 0.04%.

With `COc1ccc(C2=NCC(CBr)S2)cc1` (configuration not stated), the inhibition was inactive: -1.74%.

With `O=[N+]([O-])c1cccc(NC2=NCC(CBr)S2)c1` (configuration not stated), the inhibition was inactive: 1.76%. On to `CC(C)(C)C(=O)NC(Sc1ccncn1)C(Cl)(Cl)Cl` (configuration not stated), for which the inhibition is inactive: -2.97%. The same measure for `O=[N+]([O-])c1ncn(CCn2ncnc2[N+](=O)[O-])n1`: inactive: 3.97%; for `O=C(Nc1cc([As](=O)(O)O)ccc1O)c1ccccc1`: inactive: -6.53%.

By inhibition is commonly meant the relative decrease from the control value, in per cent.
